Test results from patent US10208083B2 (priority 2015, dated 2019).

Legend:
Test in all cases: MTT assay, cytostatic and cytotoxic activity
Assay type in all cases: cell-based, human
Parameters in all cases: TGI: unit not given here
Details in all cases: 48 h treatment, 0.1-100 μmol/1 tested
[1] = system: UWB1.289
[2] = system: OVCAR-3
[3] = system: SKOV-3
[4] = system: UWB1.289 + BRCA1
[5] = system: MOLT-4
[6] = system: PC-3
[7] = system: K-562
[8] = system: T-47D
[9] = system: MCF-7
[10] = half maximal cytotoxic concentration

`O=C(O)CCOc1ccc(N(CCCl)CCCl)cc1` was tested, and the GI50 ([1]; 50% growth inhibition) was 20 µM, the IC50 [1, 10] was over 100 µM and the TGI ([1]; total (100%) growth inhibition) was 76. For the same compound, the GI50 ([2]; 50% growth inhibition) was 56 µM, the IC50 [2, 10] was over 100 µM and the TGI ([2]; total (100%) growth inhibition) was 92. It also gave a GI50 ([3]; 50% growth inhibition) of 50 µM, an IC50 [3, 10] of over 100 µM and a TGI ([3]; total (100%) growth inhibition) of over 100. The GI50 ([4]; 50% growth inhibition) was over 100 µM, the IC50 [4, 10] was over 100 µM and the TGI ([4]; total (100%) growth inhibition) was over 100. The GI50 ([5]; 50% growth inhibition) was 31 µM, the IC50 [5, 10] was over 100 µM and the TGI ([5]; total (100%) growth inhibition) was 75. For the same compound, the GI50 ([6]; 50% growth inhibition) was 89 µM, the IC50 [6, 10] was over 100 µM and the TGI ([6]; total (100%) growth inhibition) was over 100. For the same compound, the GI50 ([7]; 50% growth inhibition) was 46 µM, the IC50 [7, 10] was over 100 µM and the TGI ([7]; total (100%) growth inhibition) was 91. It also gave a GI50 ([8]; 50% growth inhibition) of 95 µM, an IC50 [8, 10] of over 100 µM and a TGI ([8]; total (100%) growth inhibition) of over 100. For the same compound, the GI50 ([9]; 50% growth inhibition) was over 100 µM, the IC50 [9, 10] was over 100 µM and the TGI ([9]; total (100%) growth inhibition) was over 100.
